Measured values from several laboratories, pooled; numbers as filed in NIAID ChemDB.

All rows: whole-cell or culture tests; species: Mycobacterium tuberculosis

A number after MIC or MFC names an inhibition level or a share of isolates. Neighbouring rows are from separate reports. MIC bound comes from a single tested concentration. Inhibition is in % at the dose shown (toxicity tests: loss of growth or viability). Blank or dashed fields: not listed here. ECn: concentration that inhibits the pathogen or its effect by n%.

compound,strain or isolate,dose,read by,endpoint,value
C[C@H](c1ccccc1)N1C/C(=C/c2ccc(Cl)cc2)[C@]2(ON=C(c3ccc(Cl)cc3)O2)C2(C1)ON=C(c1ccc(Cl)cc1)[C@H]2c1ccc(Cl)cc1,H37Rv,,,MIC,4.14 µM
C=CC(C)(O)CC/C=C(\C)CCCC(C)(O)CCCC(C)(O)CCC=C(C)C,H37Rv,,,MIC,>128 µg/mL
CO[C@H]1/C=C/O[C@@]2(C)Oc3c(C)c(O)c4c(O)c(c(/C=N/N5CCN(C)CC5)c(O)c4c3C2=O)NC(=O)/C(C)=C\C=C\[C@H](C)[C@H](O)[C@@H](C)[C@@H](O)[C@@H](C)[C@H](OC(C)=O)[C@@H]1C,TN635,,,MIC,>32 µg/mL
C[C@H](c1ccccc1)N1C/C(=C/c2ccc(Cl)cc2)[C@]2(ON=C(c3ccccc3)O2)C2(C1)ON=C(c1ccccc1)[C@H]2c1ccc(Cl)cc1,H37Rv,,,MIC,4.56 µM
COc1cc2ccc3c4c(OC)cc5c(c4c[n+](C)c3c2cc1OC)OCO5,H37Rv,,BACTEC,MIC,>12.5 µg/mL
c1ccc(CNCCc2c[nH]c3ccccc23)cc1,H37Ra,,,MIC,32 µg/mL
O=C1C(Cl)=C(NNc2nnc(NNC3=C(Cl)C(=O)c4ccccc4C3=O)c3ccccc23)C(=O)c2ccccc21,H37Rv,12.5 µg/mL,BACTEC,inhibition,4%
Cc1ccc(/C=C/c2nc3ccc(Br)cc3[nH]2)cc1,H37Rv (ATCC 27294),,resazurin,MIC,>7.25 µg/mL
CO[C@@H]1C=C2C3CC[C@H]([C@H](C)/C=C/C(C)C(C)C)[C@@]3(C)CCC2[C@@]2(C)CC[C@H](O)C[C@]12O,H37Rv,,,MIC,36 µg/mL
Cc1c(C#N)c(=O)oc2cc(OCc3ccc(Br)cc3)ccc12,H37Rv,1 µM,fluorescence,inhibition,4.73%
CN(Cc1c[nH]c2ccccc12)Cc1c[nH]c2ccccc12,H37Ra,,,MIC,32 µg/mL
Cc1cc2ncn(C(=O)/C=C/c3ccccc3)c2cc1C,H37Rv,,resazurin / visual reading,MIC100,50 µg/mL
O=c1cc(C(F)(F)F)c2ccc(OCc3ccc(Br)cc3)cc2o1,H37Rv,50 µM,fluorescence,inhibition,34.96%
Cc1ccc(/C=C/C(=O)Oc2ccc(/C=C3\CCCC(CN(C)C)C3=O)cc2)cc1,H37Rv,12.5 µg/mL,,inhibition,99%
CCOc1ccccc1NC(=O)C(=O)CC(=O)c1c(C)n([O-])c2ccccc2[n+]1=O,H37Rv,6.25 µg/mL,resazurin,inhibition,34%
Fc1cccc(CNCCc2c[nH]c3ccccc23)c1F,H37Ra,,,MIC,64 µg/mL
O=C(/C=C/c1ccccc1)n1cnc2ccccc21,H37Rv,,resazurin / visual reading,MIC100,50 µg/mL
C[C@]12CC[C@H]3C(CCC4=CC(=O)CC[C@@]43C)[C@@H]1CC[C@@H]2c1csc(N)n1,H37Rv,6.25 µg/mL,BACTEC,inhibition,37%
C[n+]1cc2c3c(ccc2c2ccc4cc5c(cc4c21)OCO5)OCO3,H37Rv,12.5 µg/mL,BACTEC,inhibition,94%
CCOC(=O)Cc1csc(NC(=O)CSC(=S)N(C)C)n1,H37Rv,,,MIC,>156 µg/mL
O=C(/C=C/c1ccc(Br)cc1)Oc1ccc(/C=C2\CCCCC2=O)cc1,H37Rv,12.5 µg/mL,,inhibition,3%
CCOC(=O)Cc1csc(NC(=O)C(SC(=S)N(CC)CC)c2ccccc2)n1,H37Rv,,,MIC,>156 µg/mL
O=C(Cc1csc2nc(-c3ccc(Br)cc3)cn12)N/N=C1\SCC(=O)N1c1ccc(Br)cc1,H37Rv,,,MIC,>6.25 µg/mL
C[C@H](c1ccccc1)N1C/C(=C\c2ccc(Cl)cc2Cl)[C@@]2(ON=C(c3ccccc3)O2)[C@@]2(C1)ON=C(c1ccccc1)[C@@H]2c1ccc(Cl)cc1Cl,MDR-TB,,,MIC,0.53 µM
CC(C)COc1ccc(C(=O)O)cc1,H37Rv,,,MIC,188 µM
O=C(Cc1csc2nc(-c3ccc(Br)cc3)cn12)N/N=C1\SCC(=O)N1c1ccc(Cl)cc1,H37Rv,,,MIC,>6.25 µg/mL
C/C=C1\CN2CCC1CC2[C@@H](O)c1ccnc2ccc(O)cc12,H37Rv,6.25 µg/mL,resazurin,inhibition,3%
O=[N+]([O-])CC(C[N+](=O)[O-])c1c(-c2ccccc2)[nH]c2ccccc12,H37Ra,,,MIC,>256 µg/mL
CN1C(=O)CS/C1=N\NC(=O)Cc1csc2nc(-c3ccc(Br)cc3)cn12,H37Rv,6.25 µg/mL,,inhibition,7%
Cc1c(Cl)c(=O)oc2cc(OCc3ccccc3)ccc12,H37Rv,100 µM,fluorescence,inhibition,24.48%
CC(O)CCNc1nnc2c3ccccc3n(C)c2n1,H37Rv,6.25 µg/mL,resazurin,inhibition,40%
C=CCOc1ccc(C(=O)O)cc1,H37Rv,,,MIC,500 µM
COC(=O)C1=CO[C@@H](C)[C@@H]2CN3CCc4c([nH]c5cc(OC)ccc45)[C@@H]3C[C@H]12,H37Rv,128 µg/mL,BACTEC,inhibition,53%
CCCOc1ccc(C(=O)O)cc1,H37Rv,,,MIC,61 µM
C=CCN1C(=O)CS/C1=N\NC(=O)Cc1csc2nc(-c3ccc(Br)cc3)cn12,H37Rv,6.25 µg/mL,,inhibition,0%
C[C@H](c1ccccc1)N1C/C(=C/c2ccccc2Br)[C@]2(ON=C(c3ccccc3)O2)C2(C1)ON=C(c1ccccc1)[C@H]2c1ccccc1Br,H37Rv,,,MIC,8.06 µM
COc1cc(OC)c2c(c[n+](C)c3c4cc5c(cc4ccc23)OCO5)c1OC,H37Rv,12.5 µg/mL,BACTEC,inhibition,92%
c1ccc2c(c1)oc1cc3c(cc12)n1nnnc1c1cccn31,H37Rv,12.5 µg/mL,BACTEC,inhibition,-11%
CC(C)Oc1ccc(C(=O)O)cc1,H37Rv,,,MIC,31 µM
C=CC(C)(O)CC/C=C(\C)CC/C=C(\C)CCCC(C)(O)CCCC(C)(O)CCCC(C)(O)CCCC(C)(O)CCCC(C)(O)CCC=C(C)C,H37Rv,,,MIC,>128 µg/mL
CNCc1c[nH]c2ccccc12,H37Ra,,,MIC,64 µg/mL
O=C(/C=C/c1ccccc1)n1c(-c2cccc(Cl)c2)nc2ccccc21,H37Rv,,resazurin / visual reading,MIC100,12.5 µg/mL
COC(=O)C(=O)c1c(C(=O)OC)nc2[nH]n(-c3ccccc3)c(=O)c2c1-c1cccc2ccccc12,H37Rv,,BACTEC,MIC bound,>12.5 µg/mL
CCNC(=S)NNC(=O)Cc1csc2nc(-c3ccc(Br)cc3)cn12,H37Rv,,,MIC,>6.25 µg/mL
O=[N+]([O-])c1ccc(-c2cc(O)c3nc4ccccc4n3c2)cc1,H37Rv,,resazurin,MIC bound,>6.25 µg/mL
CC(C)[C@@H](C)/C=C/[C@@H](C)[C@H]1CC[C@H]2C3=CC=C4C[C@@H](O)CC[C@]4(C)[C@H]3CC[C@]12C,H37Rv,,,MIC,>128 µg/mL
Brc1ccc2nc(/C=C/c3ccc4c(c3)OCO4)[nH]c2c1,H37Rv (ATCC 27294),,resazurin,MIC,>7.25 µg/mL
Fc1ccc(CNCCc2c[nH]c3ccccc23)c(F)c1,H37Ra,,,MIC,64 µg/mL
CCCCN1C(=O)CS/C1=N\NC(=O)Cc1csc2nc(-c3ccc(Br)cc3)cn12,H37Rv,,,MIC,>6.25 µg/mL
CC(C)Oc1cc2c[n+](C)c3c4cc5c(cc4ccc3c2cc1O)OCO5,H37Rv,,BACTEC,MIC,>12.5 µg/mL
CCOC(=O)C(Nc1ccc(C)c(Cl)c1)C(=O)OCC,H37Rv,,BACTEC,MIC bound,>12.5 µg/mL
C[C@H](c1ccccc1)N1C/C(=C\c2cccc3ccccc23)[C@@]2(ON=C(c3ccc(Cl)cc3)O2)[C@@]2(C1)ON=C(c1ccc(Cl)cc1)[C@@H]2c1cccc2ccccc12,H37Rv,,,MIC,0.99 µM
CCOC(=O)Cc1csc(NC(=O)CSC(=S)N2CCC(Cc3ccccc3)CC2)n1,H37Rv,,,MIC,>156 µg/mL
COC1C(OC(C)=O)CC(=O)OC(C)CC2OC2/C=C\C(=O)C(C)CC(CC=O)C1OC1OC(C)C(OC2CC(C)(O)C(OC(=O)CC(C)C)C(C)O2)C(N(C)C)C1O,H37Rv,12.8 µg/mL,BACTEC,inhibition,-6%
O=C(/C=C/c1ccc(Cl)c(Cl)c1)Oc1ccc(/C=C2\CCCCC2=O)cc1,H37Rv,,,EC50,>12.5 µg/mL
CCOC(=O)Cc1csc(NC(=O)CSC(=S)N2CCOCC2)n1,H37Rv,,,MIC,>156 µg/mL
CCOc1ccc(/C=C/C(=O)c2sc(NNC(C)=O)nc2C)cc1,H37Rv,6.25 µg/mL,resazurin,inhibition,-11%
C=CC(C)(O)CC/C=C(\C)CC/C=C(\C)CCC(O)C(C)(O)CCCC(C)(O)CCCC(C)(O)CCCC(C)(O)CCCC(C)(O)CCCC(C)(O)CCC=C(C)C,H37Rv,,,MIC,44 µg/mL
NCCCN(CCCN)CCCNCc1c2ccccc2c(CNCCCN(CCCN)CCCN)c2ccccc12,H37Rv,,resazurin,MIC bound,>6.25 µg/mL
COc1ccc(/C=C/C(=O)Oc2ccc(/C=C3\CCCCC3=O)cc2)cc1,H37Rv,,,EC50,>12.5 µg/mL
CC1CC(CN2c3ccccc3Sc3ccccc32)C(C)N1C.Cl,H37Rv,12.5 µg/mL,BACTEC,inhibition,63%
CCOC(=O)Cc1csc(NC(=O)CSC(=S)NNC(=O)c2ccncc2)n1,H37Rv,,,MIC,>156 µg/mL
CC(C)c1ccc(C2=NOC3(O2)[C@@]2(CN([C@H](C)c4ccccc4)C[C@]34ON=C(c3ccc(C(C)C)cc3)[C@H]4c3ccc(Cl)cc3Cl)ON=C(c3ccc(C(C)C)cc3)[C@H]2c2ccc(Cl)cc2Cl)cc1,H37Rv,,,MIC,6.24 µM
COc1c(O)ccc2c1c[n+](C)c1c3cc4c(cc3ccc21)OCO4,H37Rv,,BACTEC,MIC,>12.5 µg/mL
CN(C)CCc1c[nH]c2ccccc12,H37Ra,,,MIC,256 µg/mL
CC(=O)NC1C(Oc2ccccc2)OC(C(O)CO)C1O,H37Rv,,BACTEC,MIC bound,>12.5 µg/mL
CCCN1C(=O)CS/C1=N\NC(=O)Cc1csc2nc(-c3ccc(Br)cc3)cn12,H37Rv,,,MIC,>6.25 µg/mL
Cc1[nH]nc(-c2cccnc2)c1N=NN1CCC(C(N)=O)CC1,H37Rv,,resazurin,MIC,1.56 µg/mL
CCCNC(=S)NNC(=O)Cc1csc2nc(-c3ccc(Br)cc3)cn12,H37Rv,,,MIC,>6.25 µg/mL
COc1c2occc2c([N+](=O)[O-])c2ccc(=O)oc12,H37Rv,,resazurin,MIC bound,>6.25 µg/mL
COc1cccc2c1c[n+](C)c1c3cc4c(cc3ccc21)OCO4,H37Rv,12.5 µg/mL,BACTEC,inhibition,0%
O=C(/C=C/c1ccccc1)n1c(-c2ccc(F)cc2)nc2ccccc21,H37Rv,,resazurin / visual reading,MIC100,25 µg/mL
NNC(=O)c1ccncc1,MOS,,,MIC,0.1 µg/mL
O=C1c2ccccc2C(=O)c2sc(Nc3ccccc3C(F)(F)F)nc21,H37Rv,,BACTEC,MIC bound,≤12.5 µg/mL
CCOC(=O)Cc1csc(NC(=O)C(SC(=S)N2CCN(C)CC2)c2ccccc2)n1,H37Rv,,,MIC,>156 µg/mL
Cc1ccc(C(=O)Oc2ccc(/C=C3\CCC/C(=C\c4ccc(OC(=O)c5ccc(C)cc5)cc4)C3=O)cc2)cc1,H37Rv,,,EC50,>12.5 µg/mL
COc1ccc(/C=C/c2nc3ccc([N+](=O)[O-])cc3[nH]2)cc1OC,H37Rv (ATCC 27294),,resazurin,MIC,>7.25 µg/mL
CN(Cc1cccc(Cl)c1)Cc1c[nH]c2ccccc12,H37Ra,,,MIC,32 µg/mL
Cc1cc(=O)oc2cc(OCc3ccc(Br)cc3)ccc12,H37Rv,100 µM,fluorescence,inhibition,66.84%
COc1cc2c(c(OC)c1OC)-c1c(cc3c(c1OC)OCO3)CC(C)C(C)(O)C2OC(=O)c1ccccc1,H37Rv,,BACTEC,MIC bound,>12.5 µg/mL
CN(C)Cc1c[nH]c2ccccc12,H37Ra,,,MIC,>256 µg/mL
S=C(S)Nc1ccc(Cl)cc1,H37Rv,12.5 µg/mL,BACTEC,inhibition,97%
O=[N+]([O-])c1ccc2nc(/C=C/c3ccccc3)[nH]c2c1,H37Rv (ATCC 27294),,resazurin,MIC,>7.25 µg/mL

A second listing of 10 rows from above:

| compound | strain or isolate | dose | read by | endpoint | value |
|---|---|---|---|---|---|
| CC(C)[C@@H](C)/C=C/[C@@H](C)[C@H]1CC[C@H]2C3=CC=C4C[C@@H](O)CC[C@]4(C)[C@H]3CC[C@]12C | H37Rv |  |  | MIC | >128 µg/mL |
| CCOC(=O)Cc1csc(NC(=O)CSC(=S)NNC(=O)c2ccncc2)n1 | H37Rv |  |  | MIC | >156 µg/mL |
| C=CC(C)(O)CC/C=C(\C)CC/C=C(\C)CCCC(C)(O)CCCC(C)(O)CCCC(C)(O)CCCC(C)(O)CCCC(C)(O)CCC=C(C)C | H37Rv |  |  | MIC | >128 µg/mL |
| C[C@H](c1ccccc1)N1C/C(=C\c2cccc3ccccc23)[C@@]2(ON=C(c3ccc(Cl)cc3)O2)[C@@]2(C1)ON=C(c1ccc(Cl)cc1)[C@@H]2c1cccc2ccccc12 | H37Rv |  |  | MIC | 0.99 µM |
| Fc1cccc(CNCCc2c[nH]c3ccccc23)c1F | H37Ra |  |  | MIC | 64 µg/mL |
| c1ccc(CNCCc2c[nH]c3ccccc23)cc1 | H37Ra |  |  | MIC | 32 µg/mL |
| COC1C(OC(C)=O)CC(=O)OC(C)CC2OC2/C=C\C(=O)C(C)CC(CC=O)C1OC1OC(C)C(OC2CC(C)(O)C(OC(=O)CC(C)C)C(C)O2)C(N(C)C)C1O | H37Rv | 12.8 µg/mL | BACTEC | inhibition | -6% |
| CC1CC(CN2c3ccccc3Sc3ccccc32)C(C)N1C.Cl | H37Rv | 12.5 µg/mL | BACTEC | inhibition | 63% |
| COC(=O)C1=CO[C@@H](C)[C@@H]2CN3CCc4c([nH]c5cc(OC)ccc45)[C@@H]3C[C@H]12 | H37Rv | 128 µg/mL | BACTEC | inhibition | 53% |
| Cc1ccc(C(=O)Oc2ccc(/C=C3\CCC/C(=C\c4ccc(OC(=O)c5ccc(C)cc5)cc4)C3=O)cc2)cc1 | H37Rv |  |  | EC50 | >12.5 µg/mL |